Taken from: PubChem BioAssay AID1259414 (Drosophila RNAi Screening Center, 2018)

Screen: 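Genome-wide screen for host control of endosymbiont load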 (primary screen)
System: Drosophila JW18 cells infected with Wolbachia
Knock-down reagent: long dsRNA against Drosophila genes, 0.25 µg dsRNA per well of a 384-well plate
Duration: 5 days
Conditions: cells persistently infected with Wolbachia before knock-down; no added drug
Detection: 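Imaged fluorescence in situ signal for Wolbachia 23S rRNA per DAPI-counted host cell, given as a robust z-score within each plate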
Scale: Wolbachia per cell robust z: higher = more Wolbachia per host cell than the plate typical
Hit rule: 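Hit when robust z is 1.5 or more, or -1.5 or less, in at least two of three replicates; excludes dsRNAs with several or no targets, genes not expressed in JW18 and well A1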
The deposit covers about 24,000 reagents; below is a random part of those that have a named target and a result. In the full data, about 1,210 (5%) got an active call. 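Inactive calls also include excluded dsRNAs with several or no targets, genes unexpressed in JW18, and well A1, regardless of score.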 Entries without a mark were called inactive. Reagents against one gene are numbered here. A plus sign joins genes that one reagent is predicted to hit.

| Target gene | reagent no. | Wolbachia per cell robust z, rep 1 | Wolbachia per cell robust z, rep 2 | Wolbachia per cell robust z, rep 3 |
| --- | --- | --- | --- | --- |
| CG6873 | 1 | -0.27 | 0.495 | 0.443 |
| CG32590 | 1 | -2.03 | -0.00129 | 0.123 |
| CG18789 + CG18787 | 1 | -1.66 | -2.4 | -0.936 |
| Syx13 | 1 | 0.642 | 0.423 | -0.00454 |
| SERCA | 1 | -2.25 | 0.375 | 0.455 |
| SERCA | 2 | 0.0647 | 0.965 | 2.37 |
| CG14370 | 1 | 0.159 | 0.376 | -0.468 |
| blo | 1 | 0.675 | 0.462 | 0.0347 |
| blo | 2 | -0.5 | -0.276 | 0.63 |
| CG10265 | 1 | -2.06 (active) | -1.62 | -0.453 |
| CG10265 | 2 | 0.52 | 0.195 | -0.584 |
| ana1 | 1 | 0.491 | 1.37 | 0.509 |
| ana1 | 2 | -0.581 | -0.543 | 0.141 |
| ana1 | 3 | -0.0664 | -0.441 | -0.0279 |
| dock | 1 | 1.56 | 1.25 | 0.441 |
| dock | 2 | 0.216 | 0.0204 | 0.724 |
| MCU | 1 | 0.16 | 0.115 | -5.3 |
| Bin1 | 1 | -1.06 | -0.189 | -1.35 |
| lqfR | 1 | 0.289 | -0.345 | 0.74 |
| lqfR | 2 | 0.0304 | 0.202 | -0.345 |
| lqfR | 3 | -0.45 | 0.896 | -0.551 |
| CG13924 | 1 | 0.262 | 0.277 | 0.0239 |
| sdt | 1 | -1.32 | 0.209 | -0.0557 |
| sdt | 2 | -0.31 | 0.906 | -0.639 |
| sdt | 3 | -0.243 | 0.0385 | -0.102 |
| sdt | 4 | 0.0293 | -0.911 | -1.53 |
| sdt | 5 | -5.14 | 0.656 | 1.06 |
| sdt | 6 | 0.27 | -0.584 | -0.908 |
| sdt | 7 | -6.46 | 0.137 | -0.651 |

Looked up above.
Value of sdt #6 in “Wolbachia per cell robust z, rep 1”: 0.27
lqfR #3, Wolbachia per cell robust z, rep 3 → -0.551
lqfR #2, Wolbachia per cell robust z, rep 3: -0.345
